Pooled drug test results. Numbers come from NIAID ChemDB, via PubChem.

Common to all: tests in culture; agent: Adenovirus; measure: EC50

Blank or dashed fields: not listed here. Rows are shuffled and stem from different studies. ECn: concentration that inhibits the pathogen or its effect by n%.

structure | cell line | read by | strain | result
Nc1ncnc2c1ncn2C[C@H](CO)OCP(=O)(O)O | - | cytopathic effect | TAK (TYPE 41) | 0.2 µg/mL
N#Cc1c(SCCCCBr)nsc1-c1ccccc1 | HEP-2 | plaque count | TYPE 2 | >25 µg/mL
Nc1ccnc2c1ncn2[C@H]1C=C[C@@H](OCP(=O)(O)O)O1 | - | cytopathic effect | WT 300 (TYPE 5) | >32 µg/mL
COc1ccc(-c2cc(=O)c3c(O)cc(O)cc3o2)cc1 | VERO | - | TYPE 2 | >20 µg/mL
O=C(O)P(=O)(O)O | HEL | - | TYPE 2 | >1000 µM
N=C(N)c1cn([C@@H]2O[C@H](CO)[C@@H](O)[C@@H]2O)c2ncnc(N)c12 | HeLa | plaque count | adenoid 75 (TYPE 5) | >100 µM
Nc1ccn(C[C@@H](CO)OCP(=O)(O)O)c(=O)n1 | HEL | - | TYPE 2 | 2.1 µM
O=c1[nH]c(=O)n([C@H]2C[C@H](O)[C@@H](CO)O2)cc1/C=C/Br | VERO | plaque count | TYPE 1 | >100 µM
N/C(=N/O)c1cn([C@H]2C[C@H](O)[C@@H](CO)O2)c2ncnc(N)c12 | HeLa | plaque count | adenoid 75 (TYPE 5) | 8 µM
Nc1ncnc2c1ncn2[C@@H]1C[C@@H](O)[C@H](CO)O1 | A549 | - | TYPE 1 | >100 µM
Nc1ncnc2c1ncn2C[C@@H](CO)OCP(=O)(O)O | HEL | PCR | TYPE 2 | 0.19 µg/mL
Cc1cn([C@H]2C[C@H](F)[C@@H](CO)O2)c(=O)[nH]c1=O | HEL | PCR | TYPE 2 | 3.2 µM
COC(=O)c1c(SC)nsc1-c1ccccc1 | HEP-2 | plaque count | TYPE 2 | >100 µg/mL
Nc1nc2c(ncn2C[C@]2(CO)C[C@H]2CO)c(=O)[nH]1 | HEL | - | TYPE 2 | 267 µM
Nc1ncnc2c1ncn2C[C@@H](CO)OCP(=O)(O)O | - | cytopathic effect | adenoid 6 (TYPE 2) | 10 µg/mL
CCCSc1nsc(-c2ccccc2)c1C#N | HEP-2 | plaque count | TYPE 2 | >200 µg/mL
O=c1ccn([C@H]2C[C@H](F)[C@@H](CO)O2)c(=O)[nH]1 | HEL | PCR | TYPE 2 | >100 µM
NC(=O)c1cn([C@@H]2O[C@H](CO)[C@@H](O)[C@@H]2O)c2ncnc(N)c12 | HeLa | plaque count | adenoid 75 (TYPE 5) | 8 µM
CSc1nsc(-c2ccccc2)c1C(N)=O | HEP-2 | plaque count | TYPE 2 | >250 µg/mL
Nc1ncnc2c1ncn2[C@@H]1C[C@@H](O)[C@H](CO)O1 | A549 | - | TYPE 1 | >100 µM
Nc1ncc2c(ncn2COC(CO)CO)n1 | HEL | PCR | TYPE 2 | 1.2 µM
COc1cc(/C=C/C(=O)O)ccc1O | BCC-1/KMC | cytopathic effect | TYPE 3 | >100 µg/mL
NC(=O)c1nc(F)c[nH]c1=O | A549 | plaque count | - | >100 µg/mL